Target: crypto-M. tuberculosis MAS (FAS/PKS hybrid) labeled with coumarin-PPant

B1: acyl carrier protein hydrolase (AcpH) from Pseudomonas fluorescens NCIMB 10586 (protein)
chain: MNYLAHLHLGGQLPAQLLGSLYGDFVKGRLQGQFSPQIEAAIQLHRSIDRFTDSHPLVGEALSRFSQTRRRYAGIVLDVFFDHCLARDWALYADQPLERFTSHVYQVLAAEPALPGRLAQIAPYMAADDWLGSYREFAVMEQVLRGISRRLTQPEELGYAMQELRVLYEPLSEDFRLFYPELQAFALQF
- AcpH qualitative CP activity: no

— patent publication US20150253335
